Pooled drug test results. Numbers come from NIAID ChemDB, via PubChem.

Shared fields: growth or infection tests; species: Mycobacterium tuberculosis

Two numbers with a dash give a range or band. MIC50, MIC90 and the like: level of inhibition, or share of isolates inhibited. MIC bound comes from a single tested concentration. Blank or dashed fields: not listed here. ECn: concentration that inhibits the pathogen or its effect by n%. Conditions beyond the fields shown may differ between rows. Inhibition is in % at the dose shown (toxicity tests: loss of growth or viability).

compound	changes	measure	strain or isolate	tested at	method	value
Cc1ncccc1Nc1cc2nc3ccccc3n(-c3ccc(Cl)cc3)c-2cc1=NC1CCOCC1		MIC	H37Rv		resazurin	0.03 µg/mL
COC(=O)c1cc2ccccc2nc1C1CCCC1		MIC	H37Rv			>6.25 µg/mL
Nc1ccc2c(N3CCCCC3)cc(N3CCCCC3)nc2n1		EC50	H37Rv		BACTEC	<6.25 µg/mL
Oc1c(N=NC(=S)Nc2ccc(Br)cc2)c2cc(OC(F)(F)F)ccc2n1CN1CCOCC1		EC90	H37Rv		broth dilution / resazurin	3.034 µg/mL
N#Cc1ccc(Nc2nc(Oc3ccnc4ccccc34)nc(N3CCN(c4ccc(F)cc4)CC3)n2)cc1C(F)(F)F		MIC	H37Rv		agar	25 µg/mL
Cn1c(O)c(N=NC(=S)Nc2ccc(Cl)cc2)c2cc(OC(F)(F)F)ccc21		EC50	H37Rv		broth dilution / resazurin	1.706 µg/mL
O=C(CSc1nnc(-c2ccc3ncccc3c2)o1)Nc1nc2ccc(Cl)cc2s1		MIC	H37Rv		agar	50 µg/mL
CCOC(=O)c1cc(-c2ccc([N+](=O)[O-])cc2)n(CC(=O)NN)c1C		inhibition	H37Rv	6.25 µg/mL	BACTEC	34%
CCNC(=S)N=Nc1c(O)[nH]c2ccc(C)cc12		EC50	H37Rv		broth dilution / resazurin	6.962 µg/mL
CCCN1C(=O)CN(S(=O)(=O)c2ccc(Cl)cc2)C1=O		inhibition	H37Rv	12.5 µg/mL	BACTEC	0%
COC(=O)c1cnc2ccccc2c1		MIC	H37Rv			>6.25 µg/mL
CCN(CC)c1ccc2nc3c4ccccc4c(=N)cc-3oc2c1		MIC bound	H37Rv		BACTEC	≤12.5 µg/mL
O=C(CSc1nnc(-c2ccc3ncccc3c2)o1)Nc1ccccc1		MIC	H37Rv		agar	500 µg/mL
C/C=C(\C)CNC1=C(C)C(=O)C2C(C1=O)[C@@H](COC(C)=O)[C@@]1(OC)[C@H]3N[C@H]3CN21		inhibition		0.5 µM	BACTEC	0%
Cc1c(CN2CCSCC2)cc(-c2ccc(F)cc2)n1-c1ccc(Cl)cc1		MIC	103471			2 µg/mL
COC(=O)c1cc(C2C3CC4CC(C3)CC2C4)nc2c(C3C4CC5CC(C4)CC3C5)cccc12		inhibition	H37Rv	6.25 µg/mL		1%
Cc1ccc2c(Cl)c(Cc3ccccc3)c(N3CCOCC3)nc2n1		EC50	H37Rv		BACTEC	>6.25 µg/mL
COc1ccc([C@](O)(CCN(C)C)[C@@H](c2cc3cc(C#N)ccc3nc2OC)c2cccc(OC)c2OC)cn1		MIC90	H37Rv		fluorescence	2.1 µg/mL
COc1ccc2[nH]c3c(C)c4c(c(C)c3c2c1)CN(C)CC4		MIC bound	H37Rv		resazurin	>6.25 µg/mL
Cc1c(CN2CCN(C)CC2)cc(-c2ccccc2)n1-c1ccccc1Cl		MIC	103471			>16 µg/mL
Clc1ccc2c(N3CCCCC3)cc(N3CCOCC3)nc2n1		inhibition	H37Rv	6.25 µg/mL	BACTEC	8%
CC(=O)NC[C@H]1CN(c2ccc(N3CCSCC3)c(F)c2)C(=O)O1		MIC	ss18b		resazurin	0.4 µg/mL
C[C@@H](O)[C@H]1C(=O)N2C(C(=O)O)=C(SCC(=O)OC3CCCCC3)[C@H](C)[C@H]12		MIC			broth dilution	1–2 µg/mL
Cc1ccc2c(Cl)c(C)c(Cl)nc2n1		EC50	H37Rv		BACTEC	>6.25 µg/mL
C[C@@H](O)[C@H]1C(=O)N2C(C(=O)O)=C(S[C@@H]3CN[C@H](CNS(N)(=O)=O)C3)S[C@H]12		MIC				0.5–1 µg/mL
O=C(O)CN(CC(=O)O)Cc1cc2c(cc1O)Oc1cc(O)c(CN(CC(=O)O)CC(=O)O)cc1C21OC(=O)c2ccccc21		MIC bound	H37Rv		BACTEC	>12.5 µg/mL
CCOC(=O)c1[nH]c(/C=N/NC(=O)c2c(C)c[nH]c2C)c(C(=O)OCC)c1C		EC50	H37Rv		BACTEC	<6.25 µg/mL
Oc1[nH]c2ccc(OC(F)(F)F)cc2c1N=NC(=S)NC1CCCCC1		EC50	H37Rv		broth dilution / resazurin	33.3 µg/mL
C1CCCC(N2CCCN(C3CCCCCCC3)CC2)CCC1		MIC	H37Rv			12.5 µM
CCOC(=O)Cc1ccnc2ccccc12		inhibition	H37Rv	6.25 µg/mL		2%
CC1COc2c(N3CCN(C)CC3)c(F)cc3c(=O)c(C(=O)O)cn1c23		MIC	36 strains			0.3–1.2 µg/mL
C[C@H]1[C@H](c2ccccc2)N[C@H](c2ccccc2)C[C@@]1(N)C#N		inhibition	H37Rv	6.25 µg/mL	resazurin	68%
Cc1cc(O)c(-c2ccccc2Cl)c(=O)[nH]1		MIC	H37Ra			128 µg/mL
c1cc2c[n+](c1)CCCCCCCCCCCCc1ccc[n+](c1)CCCCCCCCCCCC2		MIC	H37Rv			8 µg/mL
CSc1ccc2c(c1)c(CCN)c(C)n2Cc1ccc(Cl)c(Cl)c1		inhibition	H37Rv	6.25 µg/mL	BACTEC	100%
CC(C)(C)c1ccc(N2CCN(Cc3ccc([N+](=O)[O-])o3)CC2)cc1	Rifampicin-resistant	MIC	RifR		resazurin	0.072 µM
CCN(CC)Cc1c(C)[nH]c2ccc(NC(C)=O)cc2c1=O		inhibition	H37Rv	12.5 µg/mL	BACTEC	-2%
Cc1cc(N)c(-c2ccccc2)c(=O)[nH]1		MIC	H37Ra			128 µg/mL
CCOC(=O)c1cc(-c2ccc(-c3ccccc3)cc2)n(CC(=O)NN)c1C		EC50	H37Rv		BACTEC	>6.25 µg/mL
c1cc2c(N3CCOCC3)cc(N3CCOCC3)nc2nc1N1CCOCC1		inhibition	H37Rv	6.25 µg/mL	BACTEC	11%
Cc1cc(C)c(C2=NO[C@@H]3[C@H]2C(=O)C=C2N(Cc4ccccc4)CCO[C@@]23O)c(C)c1		MIC bound	H37Rv		BACTEC	>12.5 µg/mL
N#Cc1ccc(NC(=O)CSc2nnc(-c3ccc4ncccc4c3)o2)cc1		MIC	H37Rv		agar	100 µg/mL
NC(=O)c1cnccn1		MIC	Isolate 97-553			100 µg/mL
O=c1ccc2c(N3CCOCC3)cc(N3CCOCC3)nc2[nH]1		inhibition	H37Rv	6.25 µg/mL	BACTEC	9%
COC(=O)c1cc(C2CCCCC2)nc2ccccc12		MIC	H37Rv			>6.25 µg/mL
C[C@@H](O)[C@H]1C(=O)N2C(C(=O)O)=C(SCCO)S[C@H]12		MIC			broth dilution	2–4 µg/mL
Cc1c(CN2CCN(C)CC2)cc(-c2ccc(Cl)cc2)n1-c1ccc(Cl)cc1		MIC	103471			0.7 µg/mL
CCC(C(=O)NN)c1ccccc1		EC50				<0.25 µg/mL
Cc1c(CN2CCSCC2)cc(-c2ccc(Cl)cc2)n1-c1ccc(F)cc1		MIC	103471			1 µg/mL
COc1ccc(-c2oc3cc(OC)cc(O)c3c(=O)c2OC)cc1		EC50	H37Rv		BACTEC	>100 µg/mL
O=C1C(=O)c2ccccc2C(O)=C1CC=C(Cl)Cl		MIC	H37Rv		BACTEC	64 µg/mL
CCOC(=O)c1cc(-c2ccc(OC)cc2)n(CC(=O)NN)c1C		inhibition	H37Rv	6.25 µg/mL	BACTEC	0%
Cc1[nH]n(-c2ccccc2)c(=O)c1Sc1ccc(Cl)cc1Cl		MIC	H37Rv-MA		fluorescence	>125 µM
CCCCNCc1cccc(F)c1		MIC	H37Rv			30 µg/mL
O=C(CSc1nnc(-c2ccc3ncccc3c2)o1)Nc1ccc(Cl)cc1		MIC	H37Rv		agar	62.5 µg/mL
Cc1c[nH]c(C)c1C(=O)NN		inhibition	H37Rv	6.25 µg/mL	BACTEC	0%
CCOC(=O)c1cc(NC(C)=O)c(C)n1C		inhibition	H37Rv	6.25 µg/mL	resazurin	-2%
CCC(C)CNCc1ccccc1		MIC	H37Rv			60 µg/mL
Cc1ccc2[nH]c(O)c(N=NC(=S)Nc3cccc(Br)c3)c2c1		EC90	H37Rv		broth dilution / resazurin	1.489 µg/mL
C[C@@H](O)[C@H]1C(=O)N2C(C(=O)O)=C(S[C@@H]3CN[C@H](C(=O)N(C)C)C3)S[C@H]12		MIC			broth dilution	8–16 µg/mL
COc1cc2c3c(c1OC)Oc1ccc(cc1)CC1c4c(cc(OC)c(OC)c4Oc4ccc(cc4)CC3N(C)CC2)CCN1C		MIC	H37Rv		BACTEC	≥12.5 µg/mL
NNC(=O)c1ccc(Cl)cc1		inhibition		0.125 µg/mL		60%
CC(C)[C@H](C)[C@@H](O)[C@H](O)[C@@H](C)[C@H]1CC[C@H]2[C@@H]3COC(=O)[C@H]4C[C@H](O)[C@H](O)C[C@]4(C)[C@H]3CC[C@]12C		MIC bound	H37Rv		BACTEC	>12.5 µg/mL
Cc1c(CN2CCN(C)CC2)cc(-c2ccccc2F)n1-c1cccc2ccccc12		MIC	103471			4 µg/mL
CSC(=S)N/N=C(/c1ccccc1)c1ccccn1		inhibition	H37Rv	128 µg/mL	BACTEC	100%
CC(C)CCCNCc1ccccc1		MIC	H37Rv			125 µg/mL
CCOC(=O)c1cc(-c2ccc(Cl)cc2)n(CC(=O)N/N=C/c2ccc([N+](=O)[O-])o2)c1C		inhibition	H37Rv	6.25 µg/mL	BACTEC	55%
O=C1c2ncn(C3O[C@H](CO)[C@@H](O)[C@H]3O)c2NC2=NC=NC12		MIC bound	H37Rv		resazurin	>6.25 µg/mL
CCOC(=O)c1c(C)c(-c2ccccc2)n(CC(=O)N/N=C/c2ccc[nH]2)c1C		inhibition	H37Rv	6.25 µg/mL	BACTEC	8%
c1cc2c[n+](c1)CCCCCCCCCCCCCCc1ccc[n+](c1)CCCCCCCCCCCC2		MIC	H37Rv			8 µg/mL
COC(=O)Cc1cc(C2CCCCC2)nc2ccccc12		MIC	H37Rv			>6.25 µg/mL
O=C(O)C(=O)O.O=C1CN(CCN2CCCCC2)CC(=O)N2CCCCN12		inhibition	H37Rv	12.5 µg/mL	BACTEC	17%
CCCCNCc1cccc(Br)c1		MIC	H37Rv			125 µg/mL
c1cc2c[n+](c1)CCCCCCCCCCCCc1ccc[n+](c1)CCCCCCCCCCC2		MIC	H37Rv			8 µg/mL
NC1CCC(CC2CCC(NCc3ccc(-c4ccc(Cl)cc4)o3)CC2)CC1		MIC	H37Rv			1.56 µM
COc1cccc([C@H](c2cc3cc(C#N)ccc3nc2OC)[C@@](O)(CCN(C)C)c2ccc(C)nc2)c1OC		MIC90	H37Rv		luminescence	>5 µg/mL
CN1C(=O)N(C)C2CC(=O)c3ccc(C(F)(F)F)cc3N2C1=O		MIC bound	H37Rv		BACTEC	>12.5 µg/mL
Cc1cc(O)c(-c2ccccc2)c(=O)n1-c1ccccc1		MIC	H37Ra			128 µg/mL
COC1CCC(N=c2cc3n(-c4ccc(Cl)cc4)c4ccccc4nc-3cc2Nc2cccnc2C)CC1		MIC	H37Rv		resazurin	0.016 µg/mL
COC1(OC)c2occc2C(=N)c2ccc(=O)oc21		inhibition	H37Rv	6.25 µg/mL	resazurin	-8%
Cc1cc(O)c(-c2ccc(Cl)cc2)c(=O)[nH]1		MIC	H37Ra			>256 µg/mL
CCCCNC(=S)N=Nc1c(O)[nH]c2ccc(OC(F)(F)F)cc12		EC50	H37Rv		broth dilution / resazurin	5.476 µg/mL
CC(=O)ON=C1C=C/C(=C(/C#N)c2ccccc2)C=C1C		MIC bound	H37Rv		resazurin	>6.25 µg/mL
O=c1ccc2c(Cl)cc(N3CCOCC3)nc2[nH]1		EC50	H37Rv		BACTEC	>6.25 µg/mL
c1cc2c[n+](c1)CCCCCCCCCCCCCc1ccc[n+](c1)CCCCCCCCCCCCC2		MIC	H37Rv			8 µg/mL
c1ccc(COc2ccc(CN3CCCN(Cc4ccc(OCc5ccccc5)cc4)CC3)cc2)cc1		MIC	H37Rv			12.5 µM
N#Cc1ccc(Nc2nc(Oc3ccnc4ccccc34)nc(N3CCN(c4ccccc4F)CC3)n2)cc1C(F)(F)F		MIC	H37Rv		agar	12.5 µg/mL
Nc1ncc([C@@H]2O[C@H](CO)[C@@H](O)[C@H]2O)c(=O)[nH]1		inhibition	H37Rv	12.5 µg/mL	BACTEC	4%
Oc1c(N=NC(=S)Nc2ccc(Cl)cc2)c2cc(OC(F)(F)F)ccc2n1CN1CCOCC1		EC90	H37Rv		broth dilution / resazurin	3.041 µg/mL

A second listing of 7 rows from above:

compound | changes | measure | strain or isolate | tested at | method | value
CCCCNCc1cccc(Br)c1 |  | MIC | H37Rv |  |  | 125 µg/mL
CCC(C(=O)NN)c1ccccc1 |  | EC50 |  |  |  | <0.25 µg/mL
CCNC(=S)N=Nc1c(O)[nH]c2ccc(C)cc12 |  | EC50 | H37Rv |  | broth dilution / resazurin | 6.962 µg/mL
Cc1c(CN2CCN(C)CC2)cc(-c2ccccc2)n1-c1ccccc1Cl |  | MIC | 103471 |  |  | >16 µg/mL
CCCCNC(=S)N=Nc1c(O)[nH]c2ccc(OC(F)(F)F)cc12 |  | EC50 | H37Rv |  | broth dilution / resazurin | 5.476 µg/mL
O=C(CSc1nnc(-c2ccc3ncccc3c2)o1)Nc1ccc(Cl)cc1 |  | MIC | H37Rv |  | agar | 62.5 µg/mL
NC(=O)c1cnccn1 |  | MIC | Isolate 97-553 |  |  | 100 µg/mL